Assay results published in PMC4322620 (Frontiers in Pharmacology, 2015).

The chains behind the UniProt entries cited, without tags or fusion partners.
UniProt P30989, whole entry: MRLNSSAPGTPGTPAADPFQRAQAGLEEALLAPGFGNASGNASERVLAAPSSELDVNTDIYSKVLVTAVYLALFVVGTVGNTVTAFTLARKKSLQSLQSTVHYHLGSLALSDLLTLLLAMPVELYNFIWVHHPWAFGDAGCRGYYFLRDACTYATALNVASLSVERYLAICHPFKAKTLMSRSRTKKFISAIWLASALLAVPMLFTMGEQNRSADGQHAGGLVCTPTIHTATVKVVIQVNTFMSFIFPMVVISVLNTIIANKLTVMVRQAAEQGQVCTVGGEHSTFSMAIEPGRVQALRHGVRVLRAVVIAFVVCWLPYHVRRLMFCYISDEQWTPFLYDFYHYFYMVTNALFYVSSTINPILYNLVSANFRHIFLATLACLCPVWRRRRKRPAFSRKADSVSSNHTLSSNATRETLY

Legend:
formalin-induced pain [1] = settings: ref Allen et al., 2007; cited from earlier work
hNTS1 = settings: read-out: agonist potency (phosphoinositide accumulation); CHO cells expressing hNTS1; ref Craig et al. (1999); cited from earlier work
formalin-induced pain [2] = settings: mice, intrathecal administration; ref Craig et al., 2002; Han et al., 2008; cited from earlier work
thermal pain = assay: Hot plate test; format: in vivo, mouse; settings: mice, 4 mg/kg i.p. single dose, 55°C, n = 8 per group, mean ± SEM
6 Hz (32 mA) seizures = assay: 6 Hz (32 mA) mouse model of epilepsy; settings: doses 8–20 mg/kg, i.p., unpublished data
NTS1 (HT-29 cells) = NTS1 (HT-29 cells) (Homo sapiens, UniProt P30989); assay: Calcium activation assay (intracellular calcium mobilization); format: cell-based; settings: Fluo-4-NW calcium fluorescence, peptide 10 μM–10 pM, % of 1 μM peak response, quadruplicate experiments
acute thermal pain = assay: Tail flick test; format: in vivo, mouse; settings: mice, single dose 4 mg/kg i.p.
[3] = molecular target: neurotensin receptors (HT-29 cells) (Homo sapiens, UniProt P30989); assay: Desensitization of neurotensin receptor activation (calcium mobilization after pre-exposure); format: cell-based

Structure (SMILES) | ED50 in rat formalin assay (formalin-induced pain [1]) [nmol] | EC50 (hNTS1) [µM] | ED50 analgesic potency in formalin assay (formalin-induced pain [2]) [pmol] | Hot plate (latency to hindlimb response) (thermal pain) [s] | suppressing seizures in the 6 Hz (32 mA) model (6 Hz (32 mA) seizures) | EC50 (NTS1 (HT-29 cells)) [µM] | analgesic activity in the tail flick assay (in words) (acute thermal pain) | DC50 ([3]; 10 min pre-exposure (10 μM–100 pM), wash, 15 min without peptide, re-exposure to same peptide at 1 μM, calcium mobilization, quadruplicate experiments) [µM] | DC50/EC50 ([3]; ratio of desensitization to agonist potency)
CC[C@H](C)[C@H](NC(=O)[C@H](Cc1ccc(O)cc1)NC(=O)[C@@H]1CCCN1C(=O)[C@H](CCCCN)NC(=O)[C@H](CCCCN)NC(=O)[C@@H](NC(=O)[C@H](C)NC(=O)[C@H](CC(N)=O)NC(=O)[C@H](CO)NC(=O)CNC(=O)CNC(=O)[C@H](CCC(=O)O)NC(=O)[C@H](CCC(=O)O)NC(=O)[C@H](CO)NC(=O)[C@@H]1CCC(=O)N1)[C@@H](C)O[C@H]1O[C@H](CO)[C@H](O)[C@H](O[C@@H]2O[C@H](CO)[C@H](O)[C@H](O)[C@H]2O)[C@H]1NC(C)=O)C(=O)N[C@@H](CC(C)C)C(=O)O [Contulakin-G] | 0.07 | 0.96 | 1 | 4.94 ± 0.79 |  |  |  |  | 
CC[C@H](C)[C@H](NC(=O)[C@H](Cc1ccc(O)cc1)NC(=O)[C@@H]1CCCN1C(=O)[C@H](CCCCN)NC(=O)[C@H](CCCCN)NC(=O)[C@H](CCC(=O)NC12CC3CC(C)(CC(C)(C3)C1)C2)NC(=O)[C@H](CCCCN)NC(=O)[C@H](CC(N)=O)NC(=O)[C@H](CO)NC(=O)CNC(=O)CNC(=O)[C@H](CCC(=O)O)NC(=O)[C@H](CCC(=O)O)NC(=O)[C@H](CO)NC(=O)[C@@H]1CCC(=O)N1)C(=O)N[C@@H](CC(C)C)C(=O)O [memantine-Contulakin-G] |  |  |  | 8.09 ± 1.06 | active | 0.0432 | active | 1.51 | 35

This is a selection: effects in other tests are not listed, and their absence says nothing.
